Pooled drug test results. Numbers come from NIAID ChemDB, via PubChem.

Shared fields: whole-cell or culture tests; organism: HIV-1; method: p24; read-out: EC50

a–b is a range or a potency band. Lines come from different laboratories, so protocols vary. An empty or dashed field is not shown. ECn: concentration that inhibits the pathogen or its effect by n%.

SMILES	strain or isolate	cell line	mutations	result
CC(C)CN(CC(O)CCN1CCCC[C@H]1C(=O)NC(C)(C)C)S(=O)(=O)c1ccccc1	IIIB	CEM		<1 µM
CC(C)C1=C2[C@H]3CC[C@@H]4[C@@]5(C)CC[C@H](OC(=O)C6C[C@@H](C(=O)O)C6(C)C)C(C)(C)[C@@H]5CC[C@@]4(C)[C@]3(C)CC[C@@]2(NC(=O)C2(NC(=O)c3cccnc3N3CCOCC3)CCC2)CC1=O	NL4-3	MT-4		<0.005 µM
CC(C)[C@H](NC(=O)OCc1ccccn1)C(=O)N[C@@H](Cc1ccccc1)[C@@H](O)C[C@H](Cc1ccccc1)NC(=O)OCc1cccnc1	NL4-3	MT-4	PR-L63P	<1.5 µM
Cc1ccc(C)n1-c1ccc(C(=O)O)c(O)c1	IIIB	MT-2		1.1 µM
CCN1c2ncc(CCOc3ccc(-c4ccc(C(=O)O)cc4)cc3)cc2C(=O)N(C)c2ccc(Cl)nc21	IIIB	C8166		<0.01 µM
COc1ccc(S(=O)(=O)N(CC[C@H](O)CN2CSC[C@@H]2C(=O)NC(C)(C)C)CC(C)C)cc1	IIIB	CEM		<1 µM
Cc1nnc(-c2ccc(C(=O)NC(C)(C)C(=O)N[C@@]34CC[C@]5(C)[C@H](CC[C@@H]6[C@@]7(C)CC[C@H](OC(=O)C8C[C@@H](C(=O)O)C8(C)C)C(C)(C)[C@@H]7CC[C@]65C)C3=C(C(C)C)C(=O)C4)cc2)o1	NL4-3	MT-4	V7A	0.01001–0.05 µM
CCN1c2ncc(CCOc3ccc(-c4ccc(C(=O)O)s4)cc3C)cc2C(=O)N(C)c2cccnc21		C8166	RT-K103N Y181C	0.01–0.05 µM
COc1ccc(S(=O)(=O)N(Cc2ccccc2)CC(O)CN(CC2CCCC2)S(=O)(=O)c2ccccc2)cc1	IIIB	CEM		<1 µM
CCN1c2ncc(CCOc3ccc(C(=O)NC(C)(C)C(=O)O)cc3C)cc2C(=O)N(C)c2cccnc21	IIIB	C8166		0.01–0.05 µM
CC(C)CN(C[C@H](O)C[C@@H](CN[C@H]1Cc2ccccc2[C@H]1O)Cc1ccccc1)S(=O)(=O)c1ccccc1	IIIB	CEM		<1 µM
CC(C)C1=C2[C@H]3CC[C@@H]4[C@@]5(C)CC[C@H](OC(=O)C6C[C@@H](C(=O)O)C6(C)C)C(C)(C)[C@@H]5CC[C@@]4(C)[C@]3(C)CC[C@@]2(NC(=O)C(C)(C)NC(=O)c2cnccn2)CC1=O	NL4-3	MT-4	V7A	<0.01 µM
C/C=C/CSc1cc(NC(=S)c2ccsc2C)ccc1Cl	RF	CEM + CEM-SS		0.1 µM
CCN1c2ncc(CCOc3ccc(-c4ccc(C(=O)O)o4)cc3C)cc2C(=O)N(C)c2cccnc21	IIIB	C8166		<0.01 µM
COc1ccc(S(=O)(=O)N(CC[C@@H](O)CN(CC(C)C)S(=O)(=O)c2ccc(OC)cc2)CC(C)C)cc1	IIIB	CEM		<1 µM
CCN1c2ncc(CCOc3ccc(-c4ccc[n+]([O-])c4)cc3C)cc2C(=O)N(C)c2cccnc21		C8166	RT-K103N Y181C	<0.01 µM
CC(C)C1=C2[C@H]3CC[C@@H]4[C@@]5(C)CC[C@H](OC(=O)C6C[C@@H](C(=O)O)C6(C)C)C(C)(C)[C@@H]5CC[C@@]4(C)[C@]3(C)CC[C@@]2(NC(=O)C(C)(C)NC(=O)c2ccc3nc(-c4cnccn4)[nH]c3c2)CC1=O	NL4-3	MT-4	V7A	>0.05 µM
Clc1cc(CN2CCCNCCNCCCNCC2)cc(Cl)n1	R5 clinical isolate #1	PBMC		7.3 µM
CCN1c2ncc(CCOc3ccc(C(=O)Nc4ccc(C(=O)O)cn4)cc3C)cc2C(=O)N(C)c2cccnc21		C8166	RT-K103N Y181C	0.01–0.05 µM
COc1ccc(S(=O)(=O)N(CC(C)C)C[C@@H](O)CCN(CC2CCCC2)S(=O)(=O)C2CCS(=O)(=O)C2)cc1	IIIB	CEM		<1 µM

For reference, 2 entries again:

SMILES | strain or isolate | cell line | mutations | result
CC(C)C1=C2[C@H]3CC[C@@H]4[C@@]5(C)CC[C@H](OC(=O)C6C[C@@H](C(=O)O)C6(C)C)C(C)(C)[C@@H]5CC[C@@]4(C)[C@]3(C)CC[C@@]2(NC(=O)C2(NC(=O)c3cccnc3N3CCOCC3)CCC2)CC1=O | NL4-3 | MT-4 |  | <0.005 µM
CC(C)[C@H](NC(=O)OCc1ccccn1)C(=O)N[C@@H](Cc1ccccc1)[C@@H](O)C[C@H](Cc1ccccc1)NC(=O)OCc1cccnc1 | NL4-3 | MT-4 | PR-L63P | <1.5 µM